Anti-infective test results gathered from many reports (values: NIAID ChemDB through PubChem).

Shared fields: tests in culture; agent: HIV-1; measure: fold resistance

Blank or dashed fields: not listed here. Neighbouring rows are from separate reports. Fold resistance: result on the changed form divided by that on wild type.

structure,method,cells,strain,changes,value
Nc1ncnc2c1ncn2CCOCP(=O)(O)O,-,-,DXG 9X(RT-L74V),RT-L74V,1
Nc1nc2c(ncn2[C@H]2CO[C@@H](CO)O2)c(=O)[nH]1,cytopathic effect / MTT,MT-2,-,RT-Q151M V75I,>23
Nc1ncnc2c1ncn2CCOCP(=O)(O)O,syncytia,CEM,IIIB-Nevirapine(0.1)(RT-Y181C),RT-Y181C,1.21
C#C[C@]1(CO)O[C@@H](n2cc(I)c(=O)[nH]c2=O)C[C@@H]1O,β-galactosidase,HeLa,-,RT-M184V,0.568
CC(C)=CCN1Cc2cc(Cl)cc3[nH]c(=S)n(c23)C[C@@H]1C,syncytia,CEM,IIIB TIBO R82913-resistant (RT K103N),RT-K103N,215
Cc1cn([C@H]2C[C@H](N=[N+]=[N-])[C@@H](CO)O2)c(=O)[nH]c1=O,plaque count,CEM + CEM-SS,Clinical isolate G910-6 post-AZT,RT mutant at codon 215,660
Nc1ccn([C@@H]2CO[C@H](CO)S2)c(=O)n1,RT activity,CBMC,HXB2D (RT-K65R),RT-K65R,1.91
O=c1[nH]cnc2c1ncn2[C@H]1CC[C@@H](CO)O1,p24 / ELISA,PBMC,HXB2D (RT-K65R),RT-K65R,5
Cc1cn([C@H]2C[C@H](F)[C@@H](CO)O2)c(=O)[nH]c1=O,antigen,PBMC,BS NRTI-MDR (RT-V75I F77L F116Y Q151M),RT-V75I F77L F116Y Q151M,0.7
O=c1[nH]cnc2c1ncn2[C@H]1CC[C@@H](CO)O1,cytopathic effect,MT-4,BI-03.97 (HXB2(RT-A62V S68G T69D V75I F77L F116Y Q151M)),RT-A62V S68G T69D V75I F77L F116Y Q151M,14.1
O=c1[nH]cnc2c1ncn2[C@H]1CC[C@@H](CO)O1,p24,MT-4,126 BCH-189 (RT-M184V),RT-M184V,2.95
Nc1ccn([C@H]2CC[C@@H](CO)O2)c(=O)n1,plaque count,HT4 + HT4 LacZ-1,HXB2,RT-M184V,3.21
Nc1nc2c(ncn2[C@H]2CO[C@@H](CO)O2)c(=O)[nH]1,-,-,Clinical isolate,RT-Y181C,~1
CCOCn1c(Sc2ccccc2)c(CC)c(=O)[nH]c1=S,syncytia,CEM,IIIB NEV(RT-V106A),RT-V106A,22.5
Nc1ccn([C@H]2CC[C@@H](CO)O2)c(=O)n1,syncytia,CEM,IIIB-TSAO-m3T(10)(RT-Y181C),RT-Y181C,0.4
Cc1cn([C@H]2C[C@H](N=[N+]=[N-])[C@@H](CO)O2)c(=O)[nH]c1=O,cytopathic effect / MTT,MT-2,-,RT-Q151M,4.8
Cc1cn([C@@H]2O[C@H](CO[Si](C)(C)C(C)(C)C)C3(OS(=O)(=O)C=C3N)[C@H]2O[Si](C)(C)C(C)(C)C)c(=O)n(C)c1=O,syncytia,CEM,IIIB-BHAP)(0.1)(RT-L100I,RT-L100I,1.67
Cc1cn([C@H]2C=C[C@@H](CO)O2)c(=O)[nH]c1=O,β-galactosidase,MAGI (CCR5) + MAGI,HXB2,RT-K103N,0.16
Cc1occc1C(=S)Nc1ccc(Cl)c(/C=N/OC(C)(C)C)c1,cytopathic effect,CEM,IIIB,RT-Y181C,1.88
CCCCCCCCCCCCSCC(COP(=O)([O-])OCC[N+](C)(C)C)OCCCCCCCCC(=O)OCC(=O)OC[C@H]1O[C@@H](n2cc(C)c(=O)[nH]c2=O)C[C@@H]1N=[N+]=[N-],plaque count,CEM-SS,5346/5652-MDR (RT T215F A98S D67N K219Q) Drug-resistant,RT-T215F A98S D67N K219Q,1
CCn1c(=O)c(C)cn([C@@H]2O[C@H](CO[Si](C)(C)C(C)(C)C)C3(OS(=O)(=O)C=C3N)[C@H]2O[Si](C)(C)C(C)(C)C)c1=O,syncytia,CEM,IIIB NEV(RT-V106A),RT-V106A,450
Nc1ccn([C@H]2C[C@H](O)[C@](CO)(CF)O2)c(=O)n1,β-galactosidase,HeLa,-,RT-K65R,0.0708
O=S1(c2ccccc2)=NC(=S)Nc2ccccc21,cytopathic effect / XTT,CEM + CEM-SS,IIIB(N119(III)),RT-Y181C,>250
Cc1cn([C@H]2C[C@H](N=[N+]=[N-])[C@@H](CO)O2)c(=O)[nH]c1=O,plaque count,HT4 + HT4-6C,A012D,-,206
CCCc1cc(=O)oc2c3c(c4c(c12)OC(C)(C)C=C4)O[C@H](C)[C@@H](C)[C@@H]3O,cytopathic effect / XTT,CEM + CEM-SS,IIIB(OC-R(I)),RT-L100I,>22
CC(C)=CCOc1cc(NC(=S)c2ccoc2C)ccc1Cl,cytopathic effect,CEM,IIIB,RT-Y181C,7.5
Cc1cn([C@H]2C[C@H](N=[N+]=[N-])[C@@H](CO)O2)c(=O)[nH]c1=O,luciferase,HeLa,NRTI resistant,RT-M41L K70R T215F K219E,83.7
C#C[C@]1(CO)O[C@@H](n2cc(C)c(=O)[nH]c2=O)C[C@@H]1O,β-galactosidase,HeLa,RT-M41L T69SSG T215Y,RT M41L T69SSG insertion T215Y,1.22
CCc1cc(NCc2nc3c(Cl)ccc(Cl)c3o2)c(=O)[nH]c1C,syncytia,CEM,IIIB HEPT-resistant (RT Y188H),RT-Y188H,214
CC(C)=CCN1Cc2cc(Cl)cc3[nH]c(=S)n(c23)C[C@@H]1C,syncytia,CEM,IIIB-Pyridinone(0.1)(RT-V179N,RT-V179N,157
CC(C)=CCN1Cc2cccc3[nH]c(=S)n(c23)C[C@@H]1C,cytopathic effect / XTT,CEM + CEM-SS,IIIB(THZ-R(I)),RT-V108I,51
C#C[C@@]1(CO)C=C[C@H](n2cc(C)c(=O)[nH]c2=O)O1,β-galactosidase,MAGI (CCR5) + MAGI,HXB2,RT-K103N,0.3
Cn1c2ccccc2c2c1cc(C#N)c(=O)n2-c1ccc([N+](=O)[O-])cc1,luciferase,HeLa,NNRTI-resistant,RT-G190S,1.7
CCCCCCCCCCCCSCC(COP(=O)([O-])OCC[N+](C)(C)C)OCCCCCCCCO,plaque count,CEM + CEM-SS,Clinical isolate G910-6 post-AZT,RT mutant at codon 215,6
CC1=C(C(=O)Nc2ccc(Cl)c(C(=O)OC(C)C)c2)SCCO1,cytopathic effect / XTT,CEM + CEM-SS,IIIB(CALO-R(II)),RT-V90I T139I P225S,1.3
CC(C)=CCN1Cc2cc(Cl)cc3[nH]c(=S)n(c23)C[C@@H]1C,cytopathic effect,CEM,IIIB,RT-Y181C,125
Nc1ccn([C@H]2CC[C@@H](CO)O2)c(=O)n1,cytopathic effect,MT-4,DI-06.92 (HXB2 RT-K70R),RT-K70R,1.64
C[C@H](Cn1cnc2c(N)ncnc21)OCP(=O)(O)O,cytopathic effect / XTT / absorbance,MT-4,NL4-3,K65R,2.3
Cc1cn([C@@H]2O[C@H](CO[Si](C)(C)C(C)(C)C)C3(OS(=O)(=O)C=C3N)[C@H]2O[Si](C)(C)C(C)(C)C)c(=O)n(C)c1=O,cytopathic effect,CEM,IIIB,RT-V106A,15.33

6 of the rows above, restated:

structure	method	cells	strain	changes	value
CC(C)=CCN1Cc2cc(Cl)cc3[nH]c(=S)n(c23)C[C@@H]1C	cytopathic effect	CEM	IIIB	RT-Y181C	125
Nc1ccn([C@H]2CC[C@@H](CO)O2)c(=O)n1	cytopathic effect	MT-4	DI-06.92 (HXB2 RT-K70R)	RT-K70R	1.64
CCOCn1c(Sc2ccccc2)c(CC)c(=O)[nH]c1=S	syncytia	CEM	IIIB NEV(RT-V106A)	RT-V106A	22.5
Cc1cn([C@@H]2O[C@H](CO[Si](C)(C)C(C)(C)C)C3(OS(=O)(=O)C=C3N)[C@H]2O[Si](C)(C)C(C)(C)C)c(=O)n(C)c1=O	cytopathic effect	CEM	IIIB	RT-V106A	15.33
O=c1[nH]cnc2c1ncn2[C@H]1CC[C@@H](CO)O1	p24 / ELISA	PBMC	HXB2D (RT-K65R)	RT-K65R	5
C[C@H](Cn1cnc2c(N)ncnc21)OCP(=O)(O)O	cytopathic effect / XTT / absorbance	MT-4	NL4-3	K65R	2.3